Compound potency records, mixed from different reports. Data source: NIAID ChemDB in PubChem.

All rows: growth or infection tests; species: HIV-1; read by: MTT; measure: EC50

Blank or dashed fields: not listed here. ECn: concentration that inhibits the pathogen or its effect by n%. Neighbouring rows are from separate reports.

SMILES	strain or isolate	cell line	mutations	value
COC1=C(OC)C(=O)C23COc4c5c(cc(c42)[C@@H](OC(=O)c2ccccc2)[C@@H](C)[C@@H](C)CC3=C1)OCO5		C8166		22.1 µg/mL
Nc1ccn([C@H]2CC[C@@H](CO)O2)c(=O)n1	IIIB	MT-4		1.4 µM
N#Cc1ccc(Nc2nc(Oc3ccc(-c4ccc(C#N)cc4)cc3[N+](=O)[O-])c3sccc3n2)cc1	IIIB	MT-4	E138K	0.0065 µM
Nc1ccn([C@@H]2CS[C@H](CO)O2)c(=O)n1	IIIB	MT-4		2.24 µM
CC(C)c1nc(C(=O)NCc2ccc(F)cc2)c([O-])c(=O)n1C.CC(C)c1nc(C(=O)NCc2ccc(F)cc2)c([O-])c(=O)n1C.[Mg+2]	IIIB	MT-4		0.025 µM
O=C1c2c(O)cc(O)cc2O[C@H](c2ccc(O)c(O)c2)[C@H]1O		C8166		13.8 µg/mL
CC(C)=CCc1c(O)ccc(-c2coc3cc(O)cc(O)c3c2=O)c1O	IIIB	MT-4		>100 µg/mL
O=C(O)c1cc(O)c(O)c(O)c1	IIIB	MT-4		7.3 µM
CC1(C)CCc2c(cc(O)c3c2OC(c2ccc(O)c(O)c2)CC3=O)O1	IIIB	MT-4		>10 µg/mL
Cc1cc(C)cc(C(=Nc2ccc(C(N)=O)cc2)c2cccnc2Cl)c1	IIIB	MT-4		10.94 µM
COC(=O)C1=C[C@H](O)[C@@H](O)[C@H](O)C1	IIIB	MT-4		124.4 µM
C#Cc1ccc(Nc2nccc(Oc3c(C)cc(-c4cn(Cc5ccc(C#N)cc5)nn4)cc3C)n2)cc1	IIIB	MT-4	Y188L	>7.18 µM
Cc1ccnc2c1NC(=O)c1cccnc1N2C1CC1	IIIB	MT-4		0.31 µM
Cc1cn([C@H]2C[C@H](N=[N+]=[N-])[C@@H](CO)O2)c(=O)[nH]c1=O	RES056	MT-4		0.009 µM
COC[C@@H](c1ccc(C(F)(F)F)cc1)N1CCN(C2(C)CCN(C(=O)c3c(C)ncnc3C)CC2)C[C@@H]1C	NLAD8	PM1		0.009 µM
Cc1ccc(NC(=O)CSc2nncnc2-c2ccccc2Cl)c(Br)c1	RES056	MT-4		>42 µM
O=C([O-])c1c[nH]c2ccc(Cc3ccccc3)cc2c1=O.O=C([O-])c1c[nH]c2ccc(Cc3ccccc3)cc2c1=O.[Mg+2]	IIIB	MT-4		>17 µM
Cc1ccnc2c1NC(=O)c1cccnc1N2C1CC1	IIIB	MT-4		0.3094 µM
COc1ccc([C@@H]2COc3c(ccc4c3C=CC(C)(C)O4)C2)c(OC)c1	IIIB	MT-4		>100 µg/mL
CC(C)c1nc(C(=O)NCc2ccc(F)cc2)c(O)c(=O)n1C	IIIB	MT-4		0.063 µM
Cc1cc(C)cc(C(=O)c2cccnc2Oc2ccc(N)cc2)c1	IIIB	MT-4		>123 µM
COc1cc2oc(=O)c(-c3ccc(O)cc3O)cc2c(OC)c1CC=C(C)C	IIIB	MT-4		>20 µg/mL
Cc1cn([C@H]2C[C@H](N=[N+]=[N-])[C@@H](CO)O2)c(=O)[nH]c1=O		MT-4	E138K	0.036 µM
Cc1cn([C@H]2C[C@H](N=[N+]=[N-])[C@@H](CO)O2)c(=O)[nH]c1=O	IIIB	MT-4		0.0056 µM
C#Cc1ccc(Nc2nccc(Oc3c(C)cc(-c4cn(Cc5ccc([N+](=O)[O-])cc5)nn4)cc3C)n2)cc1	IIIB	MT-4	K103N	0.17 µM
Cc1cn([C@H]2C[C@H](N=[N+]=[N-])[C@@H](CO)O2)c(=O)[nH]c1=O	IIIB	MT-4		0.0036 µM
COc1ccc(-c2coc3cc(O)ccc3c2=O)cc1	IIIB	MT-4		>100 µg/mL
C=C1C([C@@H](C)[C@H]2CC=C(C)C(=O)O2)=CC[C@]2(C)[C@H]1C[C@]1(O)C=C3C=CC(=O)OC(C)(C)[C@@H]3[C@H](OC(C)=O)C[C@@H]21		C8166		3.8 µg/mL
Cc1ccc(NC(=O)CSc2nncnc2-c2ccccc2Cl)c([N+](=O)[O-])c1	RES056	MT-4		>22 µM
COc1cc2c(c(OC)c1CC=C(C)C)C[C@H](c1ccc(O)cc1O)CO2	IIIB	MT-4		>10 µg/mL
C/C=C(/C)C(=O)OC1c2cc3c(c4c2[C@](C(=O)C(=O)OC)(CO4)/C(=C\C(=O)OC)C[C@@H](C)[C@H]1C)OCO3		C8166		19.9 µg/mL
Cc1cc(-c2ccc(C#N)cc2)cc(C)c1Oc1nc(Nc2ccc(C#N)cc2)nc2ccsc12	IIIB	MT-4	F227L V106A	0.02536 µM
O=C(CSc1nncnc1-c1ccccc1Cl)Nc1ccccc1	IIIB	MT-4		0.42 µM
C#Cc1ccc(Nc2nccc(Oc3c(C)cc(-c4cn(Cc5ccc(C(N)=O)cc5)nn4)cc3C)n2)cc1	IIIB	MT-4	E138K	0.12 µM
C=C(C)[C@@H]1CC[C@]2(CCO)CC[C@]3(C)C(CCC4[C@@]5(C)CC/C(=C\O)C(C)(C)C5CC[C@]43C)C12	IIIB	MT-4		151 µM
Cc1cn([C@H]2C[C@H](N=[N+]=[N-])[C@@H](CO)O2)c(=O)[nH]c1=O	IIIB	MT-4		0.012 µM
O=C(CSc1nncnc1-c1ccccc1Cl)Nc1cccnc1Cl	RES056	MT-4		23 µM
O=C(NCCc1ccc(O)c(O)c1)c1cc2cc(O)c(O)cc2[nH]1	IIIB	MT-4		>153 µM
Cc1cc(C)cc(C(=O)c2cccnc2Nc2ccc(O)cc2)c1	IIIB	MT-4		>6.44 µM
CC1(C)C=Cc2c(ccc(-c3coc4cc(O)cc(O)c4c3=O)c2O)O1	IIIB	MT-4		>20 µg/mL
CC(C)Nc1cccnc1N1CCN(C(=O)c2cc3cc(NS(C)(=O)=O)ccc3[nH]2)CC1	IIIB	MT-4		0.032 µM
Cc1cc(C)cc(C(=O)c2cccnc2Nc2cccnc2)c1	IIIB	MT-4		>41.63 µM
CC(C)=CCC/C(C)=C/CC/C(C)=C/CC/C(C)=C/Cc1cc(O)cc2c1OC(=O)C2	IIIB	MT-4		30.66 µM
COc1ccc(-c2coc3cc(O)c(CC=C(C)C)c(O)c3c2=O)cc1O	IIIB	MT-4		>100 µg/mL
COc1ncccc1C(=O)c1cccc(C#N)c1	RES056	MT-4		>255 µM
O=C(NCCCN1CCN(CCCNC(=O)c2cc3cc(O)c(O)cc3[nH]2)CC1)c1cc2cc(O)c(O)cc2[nH]1	IIIB	MT-4		>176 µM

The last 5 rows once more:

SMILES	strain or isolate	cell line	mutations	value
Cc1cc(C)cc(C(=O)c2cccnc2Nc2cccnc2)c1	IIIB	MT-4		>41.63 µM
CC(C)=CCC/C(C)=C/CC/C(C)=C/CC/C(C)=C/Cc1cc(O)cc2c1OC(=O)C2	IIIB	MT-4		30.66 µM
COc1ccc(-c2coc3cc(O)c(CC=C(C)C)c(O)c3c2=O)cc1O	IIIB	MT-4		>100 µg/mL
COc1ncccc1C(=O)c1cccc(C#N)c1	RES056	MT-4		>255 µM
O=C(NCCCN1CCN(CCCNC(=O)c2cc3cc(O)c(O)cc3[nH]2)CC1)c1cc2cc(O)c(O)cc2[nH]1	IIIB	MT-4		>176 µM